# Values quoted from earlier work, collected in publication PMC4670578.
# Where two headings read alike, the source gives them in different places.
# Columns and labels:
# [1] = target: T1, His37 (UniProt position 37, IIGILHLILWI); details: M2TM tetramer in raft-like (viral-mimetic) membrane
# [2] = target: T1, His37; experiment: NMR; details: M2TM tetramer in lipid environment
substance,measurement,setting,value
M2 transmembrane domain peptide (M2TM) (Influenza A virus (strain not stated)),pKa,[1],7.6
same,pKa,[2],8.2
